Pooled drug test results. Numbers come from NIAID ChemDB, via PubChem.

Shared fields: whole-cell or culture tests; agent: Candida albicans; read-out: inhibition

Rows are shuffled and stem from different studies. Inhibition is in % at the dose shown (toxicity tests: loss of growth or viability). Blank or dashed fields: not listed here.

structure | strain | dose | read by | result
CCCCCSc1nc2ccc(N)cc2s1 | IEM 49/64 | 80 µM |  | ≥70%
CCOC(=O)C1C(c2ccc(Cl)cc2)CC(c2ccccc2)=CC12NCCN2 |  | 200 µg/mL |  | 0%
CO[C@H]1/C=C/O[C@@]2(C)Oc3c(C)c(O)c4c(O)c(c(/C=N/N5CCN(C)CC5)c(O)c4c3C2=O)NC(=O)/C(C)=C\C=C\[C@H](C)[C@H](O)[C@@H](C)[C@@H](O)[C@@H](C)[C@H](OC(C)=O)[C@@H]1C | 20 isolates | 0.4 µg/mL |  | 25%
CCC[CH2][Sn]([CH2]CCC)([NH]c1ccccc1C(=O)O)[O]C(=O)c1ccccc1N | ATCC 18804 | 20 µg/mL | broth dilution | 95%
C[C@H]1[C@H](O)[C@@H](C)/C=C/C=C/C=C/C=C/C=C/C=C/C=C/[C@H](O[C@@H]2O[C@H](C)[C@@H](O)[C@H](N)[C@@H]2O)C[C@@H]2O[C@](O)(C[C@@H](O)C[C@@H](O)CC[C@H](O)[C@@H](O)C[C@@H](O)CC(=O)O[C@H]1C)C[C@H](O)[C@H]2C(=O)O | ATCC 64549 | 3.1 µg/mL |  | >99.9%
CCC(C)n1ncn(-c2ccc(N3CCN(c4ccc(OC[C@H]5CO[C@](Cn6cncn6)(c6ccc(Cl)cc6Cl)O5)cc4)CC3)cc2)c1=O | 75 strains | 10 µg/mL | agar diffusion / agar | 71%
Oc1ccc(/C=C/c2cc(O)cc(O)c2)cc1 | CAI.4 | 400 µg/mL |  | <20%
Nc1c(Br)cc(Br)cc1CNC1CCC(O)CC1 | NCCLS67/ ATCC 90029 | 2000 µg/mL | MTT | 90%
CC(C)[C@H](NC(=O)[C@H](Cc1ccccc1)NC(=O)[C@H](CCCCN)NC(=O)CNC(=O)[C@H](Cc1c[nH]c2ccccc12)NC(=O)[C@@H](N)CCCN=C(N)N)C(N)=O |  | 100 µM | colony count | 19.3%
CCCCCCCCC/C=C\C(=O)O | SC5314 | 300 µM | XTT | 90%
CC1(C)CCC[C@]2(C)[C@H]3C=C4C(=CC(=O)C(O)=C4Cl)O[C@@]3(C)CC[C@@H]12 | ATCC 90028 | 20 µg/mL |  | 0%
Clc1ccccc1C(c1ccccc1)(c1ccccc1)n1ccnc1 | 75 strains | 10 µg/mL | agar diffusion / agar | 62%
C[C@H]1[C@H](O)[C@@H](C)/C=C/C=C/C=C/C=C/C=C/C=C/C=C/[C@H](O[C@@H]2O[C@H](C)[C@@H](O)[C@H](N)[C@@H]2O)C[C@@H]2O[C@](O)(C[C@@H](O)C[C@@H](O)CC[C@H](O)[C@@H](O)C[C@@H](O)CC(=O)O[C@H]1C)C[C@H](O)[C@H]2C(=O)O | ATCC 44859 | 0.54 µM | broth dilution | 80%
c1ccc2c(c1)-c1nccc3ccnc-2c13 | B311 | 12.5 µg/mL |  | 80%
Clc1ccc(COC(Cn2ccnc2)c2ccc(Cl)cc2Cl)c(Cl)c1 | 75 strains | 10 µg/mL | agar diffusion / agar | 51%
CC(N1CCN(c2ccc(-n3cnnn3)cc2)C1=O)[C@](O)(Cn1cncn1)c1ccc(F)cc1F | Clinical isolates | 2 µg/mL |  | 90%

Repeating the final 2 entries:

structure	strain	dose	read by	result
Clc1ccc(COC(Cn2ccnc2)c2ccc(Cl)cc2Cl)c(Cl)c1	75 strains	10 µg/mL	agar diffusion / agar	51%
CC(N1CCN(c2ccc(-n3cnnn3)cc2)C1=O)[C@](O)(Cn1cncn1)c1ccc(F)cc1F	Clinical isolates	2 µg/mL		90%